Results reported in patent publication US20230357364A1 (INTERNATIONAL AIDS VACCINE INITIATIVE, published 2023).

Molecular target: SARS-CoV-2 spike on pseudovirus or live virus (USA-WA1/2020, WT) (SARS-CoV-2, UniProt P0DTC2 14-1273)
Assay: cell-based or functional assay

B1: L12.bP11A06 (antibody, V domains shown)
VH: EVQLVESGGGLIQPGGSLRLSCAASGLTVSSNYMSWVRQAPGKGLEWVSVIYSGGSTFYADSVKGRFTISRDNSKNTLYLQMNSLRAEDTAVYYCARDLDVYGLDVWGQGTTVTVSS
VL: DIVMTQSPSFLSASVGDRVTITCRASQGISSYLAWYQQKPGKAPKLLIYAASTLQSGVPSRFSGSGSGTEFTLTISSLQPEDFATYYCQQLNSYPPKFTFGPGTKVEIK
  PSV neutralization IC50: 0.017 µg/mL
